Values from PubChem BioAssay AID504761 (Drosophila RNAi Screening Center, 2011)
In all, the deposit lists about 22,000 reagents; this is an unselected part of those that have a named target and a result. Over the whole deposit, 116 (0.52%) got an active call. 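Calls depend on retest data that are not deposited; infection was ranked per plate without normalising between plates; the unit of the infection score is not given.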 Raw values vary from plate to plate and are shown uncorrected. Names joined by + are all predicted targets of the reagent. Not stated in the record: the amount of reagent, the time to read-out.

Test: 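Insect host genes that dengue virus relies on to spread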 (primary screen)
Cells: D.Mel-2 cells from Drosophila
Reagent: long dsRNA against Drosophila genes
Conditions: infection with dengue virus type 2; dose and infection time not stated
Measurement: 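Per well on two replicate plates, imaging gave the percent of cells positive for viral envelope protein, ranked by infection, and a nuclear count of cells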
Scale: infection score: higher = more virus-infected cells; cell count: higher = more cells in the well
Call rule: 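Very low infection ranking in both replicate wells (chance probability at most 0.065), then a retest showing infection dropped 1.5-fold or more at p below 0.05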
Meaning of the calls: active = confirmed: knock-down lowers infection; inactive = not picked or not confirmed

Target gene,dsRNA,"infection score, replicate 1","infection score, replicate 2","cell count, replicate 1","cell count, replicate 2",outcome
Kif19A (Kinesin family member 19A),DRSC16576,24.3,3.51,6477,6219,inactive
Kif19A (Kinesin family member 19A),DRSC23867,1.29,1.16,6219,6281,inactive
CG6845,DRSC08576,16,9.03,6615,6060,inactive
CG6845,DRSC26319,1.95,0.98,6563,5739,active
CG15478,DRSC18057,9.15,13.9,6003,6134,inactive
CG15478,DRSC25277,1.38,9.52,6499,5980,inactive
CG11263,DRSC09832,0.68,0.76,6326,6613,inactive
CG34124,DRSC00849,0.9,1.97,6088,5688,inactive
CG11458,DRSC23399,3.26,3.2,6720,5807,inactive
Fcp1 (TFIIF-interacting CTD phosphatase),DRSC04121,9.32,32.3,6547,5368,inactive
Fcp1 (TFIIF-interacting CTD phosphatase),DRSC26715,5.12,7.31,5569,6337,inactive
lncRNA:CR32657 (long non-coding RNA:CR32657),DRSC19403,2.43,2.64,6792,6907,inactive
lncRNA:CR32657 (long non-coding RNA:CR32657),DRSC25753,2.06,2.62,6077,6189,inactive
CG8420,DRSC16418,1.73,7.86,6463,6448,inactive
CG9962,DRSC00739,1.85,1.68,6604,6846,inactive
CG9962,DRSC27772,3.98,7.66,6401,6408,inactive
Polr1D + DCTN6-p27,DRSC02094,,4.51,490,6763,inactive
CG5577,DRSC10519,7.9,15.2,6101,6549,inactive
nudE,DRSC09000,7.86,5.27,6170,6454,inactive
nudE,DRSC10962,2.78,5.37,6223,6225,inactive
nudE,DRSC30057,5.16,14,6101,5857,inactive
Tlk (Tousled-like kinase),DRSC17731,0.54,4.54,7156,6801,inactive
Tlk (Tousled-like kinase),DRSC22924,0.89,1.85,6886,7466,inactive
Tlk (Tousled-like kinase),DRSC22926,1.02,1.24,6753,7577,inactive
Tlk (Tousled-like kinase),DRSC23163,3.61,22.2,6840,6981,inactive

Records listed above with an active call (1):
Target gene,dsRNA,"infection score, replicate 1","infection score, replicate 2","cell count, replicate 1","cell count, replicate 2",outcome
CG6845,DRSC26319,1.95,0.98,6563,5739,active
